Measurements reported in PubChem BioAssay AID1259414 (Drosophila RNAi Screening Center, 2018).
The deposit covers about 24,000 reagents; shown is an unselected part of those with a known target gene and a result. Of all reagents, about 1,210 (5%) are marked active. 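Inactive calls also include excluded dsRNAs with several or no targets, genes unexpressed in JW18, and well A1, regardless of score.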 A number with no mark means an inactive call. Names joined by + are all predicted targets of the reagent.

Screen: 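Host factors increasing or decreasing Wolbachia levels in cultured fly cells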 (primary screen)
Cell system: Drosophila JW18 cells infected with Wolbachia
Reagents: long dsRNA against Drosophila genes, 0.25 µg dsRNA per well of a 384-well plate
Duration: 5 days
Conditions: cells persistently infected with Wolbachia before knock-down; no added drug
Read-out: 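Automated imaging of bacterial rRNA staining divided by host cell count, reported as plate-normalised robust z-score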
Direction: Wolbachia per cell robust z: higher = more Wolbachia per host cell than the plate typical
Hit rule: 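Active if absolute robust z reaches 1.5 in two or more of three replicates, leaving out multi- or no-target dsRNAs, genes unexpressed in JW18 and A1 wells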

target | dsRNA | Wolbachia per cell robust z, rep 1 | Wolbachia per cell robust z, rep 2 | Wolbachia per cell robust z, rep 3
asRNA:CR42742 + CG9897 | DRSC04595 | 1.21 | 0.571 | 0.249
CG2310 | DRSC15438 | -0.454 | 0.186 | 0.438
CG43346 + CG43345 | DRSC03164 | 1.29 | 0.334 | 0.664
wol | DRSC03077 | 1.25 | -0.187 | 0.0216
wol | DRSC27227 | -0.0827 | -0.926 | 0.551
Polr2E | DRSC06100 | 0.277 | 1.04 | 1
Rpn3 | DRSC03318 | 2.45 (active) | 2.16 | -1.51
Rpn3 | DRSC29446 | -2.79 | -0.123 | -1.54
RhoGEF64C | DRSC08318 | -0.306 | 0.0762 | -0.76
RhoGEF64C | DRSC08319 | 0.887 | -0.224 | 0.146
RhoGEF64C | DRSC25939 | 0.546 | 0.176 | 0.301
mei-9 | DRSC18792 | 0.0758 | -0.177 | -2.61
CG32040 | DRSC22459 | 1.62 | 0.802 | 0.551
Tmc | DRSC10176 | 0.884 | 1.36 | 1.04
Tmc | DRSC10356 | 0.263 | 1.06 | 1.54
Tmc | DRSC27883 | 0.34 | -0.379 | -0.24
Lerp | DRSC14750 | 0.613 | 0.116 | -1.99
Lerp | DRSC14751 | -1.93 | 0.839 | 0.517
Lerp | DRSC16030 | 0.685 | 1.33 | 0.371
Lerp | DRSC16031 | 0.607 | 0.395 | 1.16
NimC1 | DRSC01879 | 0.149 | -1.01 | -5.42
pros | DRSC12856 | -1.04 | -0.219 | -3.12
pros | DRSC17032 | 0.0503 | 0.218 | -0.00667
pros | DRSC27593 | 1.62 | 0.00125 | 0.728
CG9649 | DRSC16534 | -0.652 | -0.297 | -2.13
CG9649 | DRSC23552 | 0.91 | -0.897 | 0.386

Copied from the listing, 8 entries:
target | dsRNA | Wolbachia per cell robust z, rep 1 | Wolbachia per cell robust z, rep 2 | Wolbachia per cell robust z, rep 3
CG43346 + CG43345 | DRSC03164 | 1.29 | 0.334 | 0.664
wol | DRSC03077 | 1.25 | -0.187 | 0.0216
wol | DRSC27227 | -0.0827 | -0.926 | 0.551
Polr2E | DRSC06100 | 0.277 | 1.04 | 1
Rpn3 | DRSC03318 | 2.45 (active) | 2.16 | -1.51
Rpn3 | DRSC29446 | -2.79 | -0.123 | -1.54
RhoGEF64C | DRSC08318 | -0.306 | 0.0762 | -0.76
RhoGEF64C | DRSC08319 | 0.887 | -0.224 | 0.146

Next results follow:
target | dsRNA | Wolbachia per cell robust z, rep 1 | Wolbachia per cell robust z, rep 2 | Wolbachia per cell robust z, rep 3
CG34221 | DRSC06150 | 0.905 | 0.455 | 0.184
CG34221 | DRSC41293 | -0.275 | 0.46 | -0.455
Marf1 | DRSC03747 | 0.77 | 0.964 | 1.67
Marf1 | DRSC03774 | 0.259 | 0.93 | 1
CG1924 | DRSC19823 | -4.48 | -0.209 | -0.763
CG1924 | DRSC24870 | -1.54 (active) | -3 | -2.14
Prosalpha3 | DRSC04644 | 2.03 (active) | 1.76 | 2
CG5107 | DRSC15716 | 0.476 | 0.0907 | 0.669
CG14071 | DRSC02374 | -2.39 | 0.158 | 0.607
ND-51 | DRSC03145 | 0.38 | -0.0465 | 1.37
Serinc | DRSC11296 | -2.25 | 0.0674 | -1.04
Pbp49 + CG42516 | DRSC06073 | -0.34 | -2.01 | -3.63
CG17475 | DRSC15238 | 0.547 | -0.729 | 0.83
CG17475 | DRSC27674 | 0.223 | -1.13 | -1.46
Oseg5 | DRSC03209 | -0.36 | -0.265 | 0.996
CG30026 | DRSC05276 | -0.744 | -0.399 | 0.754
CG30026 | DRSC29320 | -0.531 | 0.119 | -0.954
Vps20 | DRSC04448 | -1.29 | 0.739 | 0.783
CG12081 | DRSC17802 | 0.26 | 0.146 | -0.549
CG8950 | DRSC07300 | -2.83 (active) | -3.93 | -0.00177
Prat2 | DRSC09692 | -0.185 | -0.222 | -0.24
Hil | DRSC05989 | -0.423 | -0.931 | -0.389
Hil | DRSC06395 | 0.0228 | -0.832 | 0.181
mora | DRSC16594 | 0.231 | -0.132 | -0.538
Ir7c | DRSC18007 | -1.52 | -0.67 | 0.623
cnn | DRSC05422 | -0.389 | 1.02 | -1.09
cnn | DRSC07596 | 0.67 (active) | -3.04 | -1.84
cnn | DRSC40804 | 0.707 | 0.116 | 0.574
Mst27D | DRSC00967 | -1.9 (active) | -2.16 | -1.86
Rheb | DRSC12148 | -1.11 | -5.65 | 1.2
retinin | DRSC09940 | -0.922 | 0.0303 | 3.04
retinin | DRSC25734 | -0.262 | -1.25 | 0.696
nab | DRSC08455 | 0.858 | 0.267 | 0.0881
nab | DRSC08456 | -7.46 | -2.14 | 1.34
CG42460 | DRSC40616 | -2.78 | -0.152 | -0.0765
CG34133 | DRSC16319 | 1.73 (active) | 1.23 | 2.71
CG34133 | DRSC22239 | -2.3 | 0.783 | -0.673
CG34133 | DRSC25658 | 1.35 | 0.0576 | 0.969
CG34133 | DRSC29408 | -1.43 | 0.27 | 0.612
bero | DRSC03211 | 1.86 | -4.35 | 0.366
bero | DRSC24416 | 0.0827 | 0.141 | 0.397
CG11570 | DRSC09844 | 0.0164 | 0.323 | 0.358
